Results: PMC7304579

Target: HIV-1 CO6980v0c22 gp145 produced in Expi293F cells (HIV-1 subtype C, strain CO6980v0c22)
Test: BLI; Octet Red 96; biotinylated gp145 immobilised on streptavidin biosensors (10 ug/mL, 250 s, ~50% saturation); analyte in six two-fold dilutions; dissociation in kinetics buffer; global fit to a 1:1 binding model

CD4 (from UniProt P01730 26-458) (receptor)
Kd: 1.2 nM
